Data reported in paper PMC4885069, “Botulinum Neurotoxin Serotype A Recognizes Its Protein Receptor SV2 by a Different Mechanism than Botulinum Neurotoxin B Synaptotagmin” (Toxins, 2016).
“And” between values parts separate entries of the source, which are not always exact repeats. Equal values may be shown once.

Columns and labels:
[1] = biological target: HC fragment of BoNT serotype B (HCB) (Clostridium botulinum, UniProt P10844 859-1291)
[2] = biological target: HC-fragment of BoNT/A fused to a C-terminal Streptag (HCAS) (Clostridium botulinum, UniProt P0DPI1 871-1296)

B1: GST-rSyt-II 1–61 (domain or fragment, rat, UniProt P29101 1-61, looked up)
chain: MRNIFKRNQEPIVAPATTTATMPLAPAAPADNSTESTGTGESQEDMFAKLKDKFFNEINKI
[1]
  Kd: 75 nM and 72 nM
  koff: 0.041 s⁻¹
  kon: 540000 M⁻¹ s⁻¹

B2: GST-rSV2C 454–579 (luminal domain 4, LD4) (domain or fragment, rat, UniProt Q9Z2I6 454-579, looked up)
chain: FPDVIKHLQSDEYALLTRNVQKDKYANFSINFTMENQVHTGMEYDNGRFLGVKFKSVTFKDSVFKSCTFDDVTSVNTYFKNCTFIDTLFENTDFEPYKFIDSEFQNCSFLHNKTGCQITFDDDYSA
[2]
  Kd: 510 nM

B3: GST-hSV2C 455–579 (domain or fragment, human, UniProt Q496J9 455-579, looked up)
chain: PDVIKPLQSDEYALLTRNVERDKYANFTINFTMENQIHTGMEYDNGRFIGVKFKSVTFKDSVFKSCTFEDVTSVNTYFKNCTFIDTVFDNTDFEPYKFIDSEFKNCSFFHNKTGCQITFDDDYSA
[2]
  koff: 0.12 s⁻¹
  kon: 310000 M⁻¹ s⁻¹
